This is an account of results in patent US20250313611A1.

In this assay the target is recombinant human FcRn/FCGRT-B2M heterodimer protein (human) (UniProt P55899). The assay is described as follows: SPR, pH 7.4. On the technique in general: Surface plasmon resonance follows binding to a sensor surface in real time, without labels.

In the case of “Bebtelovimab Biosimilar (PX-TA1750) (antibody)”, the RUmax at 1500 nM (pH 7.4) worked out at 8.2 RU.

Regarding human IgG1 isotype control antibody, the RUmax at 1500 nM (pH 7.4) came out at 16.2 RU.
